Key:
[1] = tested on: OVCAR-3; assay: MTT assay, cytostatic and cytotoxic effects
[2] = tested on: SKOV-3; assay: MTT assay, cytostatic and cytotoxic effects
[3] = tested on: UWB1.289 + BRCA1; assay: MTT assay, cytostatic and cytotoxic effects
[4] = tested on: UWB1.289; assay: MTT assay, cytostatic and cytotoxic effects
[5] = tested on: MRC-5; assay: MTT assay, selectivity on normal lung fibroblasts
[6] = tested on: PHA-stimulated PBMCs (T-lymphocytes) from healthy donors; assay: Sister chromatid exchanges (SCEs) assay, genotoxicity and PRI; conditions: 3 μM
[7] = tested on: UWB1.289 + BRCA1; assay: as above; conditions: UWB1.289 +BRCA1, 3 μM
[8] = tested on: UWB1.289; assay: as above; conditions: UWB1.289, 3 μM
[9] = target: PARP-HSA Enzyme (PARP1/2) (Homo sapiens, UniProt P09874); assay: Universal PARP Colorimetric Assay Kit, cell-free PARP-1/2 activity assay; conditions: PARP 0.6 units/well

Chains of the proteins cited; added tags and fusions are not shown.
UniProt P09874, whole entry, looked up: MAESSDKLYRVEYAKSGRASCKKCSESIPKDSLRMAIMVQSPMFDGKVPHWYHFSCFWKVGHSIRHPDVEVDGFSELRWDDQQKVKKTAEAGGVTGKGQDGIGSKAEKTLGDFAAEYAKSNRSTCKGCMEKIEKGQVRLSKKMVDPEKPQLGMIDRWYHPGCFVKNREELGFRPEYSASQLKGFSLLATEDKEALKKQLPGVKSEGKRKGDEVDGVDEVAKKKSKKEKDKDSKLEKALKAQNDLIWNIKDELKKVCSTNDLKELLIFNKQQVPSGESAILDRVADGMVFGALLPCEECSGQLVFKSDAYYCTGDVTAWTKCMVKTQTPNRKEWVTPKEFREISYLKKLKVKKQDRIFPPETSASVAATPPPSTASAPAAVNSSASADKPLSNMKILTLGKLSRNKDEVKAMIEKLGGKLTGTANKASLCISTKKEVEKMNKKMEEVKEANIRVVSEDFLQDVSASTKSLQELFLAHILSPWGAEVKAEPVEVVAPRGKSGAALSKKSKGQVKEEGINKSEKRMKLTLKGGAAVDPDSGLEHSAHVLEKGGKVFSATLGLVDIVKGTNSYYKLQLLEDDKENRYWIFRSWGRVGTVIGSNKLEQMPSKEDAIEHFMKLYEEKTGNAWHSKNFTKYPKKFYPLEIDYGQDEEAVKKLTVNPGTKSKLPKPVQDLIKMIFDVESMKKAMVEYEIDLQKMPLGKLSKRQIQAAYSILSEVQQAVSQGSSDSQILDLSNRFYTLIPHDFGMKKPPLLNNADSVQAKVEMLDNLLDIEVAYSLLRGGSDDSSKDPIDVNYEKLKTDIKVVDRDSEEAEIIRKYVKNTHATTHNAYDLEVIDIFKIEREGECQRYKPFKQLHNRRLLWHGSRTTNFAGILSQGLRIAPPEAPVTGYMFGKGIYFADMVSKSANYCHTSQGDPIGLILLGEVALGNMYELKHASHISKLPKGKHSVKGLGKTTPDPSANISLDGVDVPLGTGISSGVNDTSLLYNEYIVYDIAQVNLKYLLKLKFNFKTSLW

O=C(O)CCOc1ccc(N(CCCl)CCCl)cc1
TGI ±SEM (100% cell growth inhibition, cytostatic) ([1]; OVCAR-3, 48 h treatment): >100 µM | GI50 ([1]; read-out: GI50 ±SEM (50% inhibition of cell growth, cytostatic), OVCAR-3, 48 h treatment): > 100 µM | IC50 ([1]; read-out: IC50 ±SEM (50% cytocidal effect, cytotoxic), OVCAR-3, 48 h treatment): > 100 µM | TGI ±SEM (100% cell growth inhibition, cytostatic) ([2]; SKOV-3, 48 h treatment): >100 µM | GI50 ([2]; read-out: GI50 ±SEM (50% inhibition of cell growth, cytostatic), SKOV-3, 48 h treatment): 77 µM | IC50 ([2]; read-out: IC50 ±SEM (50% cytocidal effect, cytotoxic), SKOV-3, 48 h treatment): > 100 µM | TGI ±SEM (100% cell growth inhibition, cytostatic) ([3]; UWB1.289 + BRCA1, 48 h treatment): >100 µM | GI50 ([3]; read-out: GI50 ±SEM (50% inhibition of cell growth, cytostatic), UWB1.289 + BRCA1, 48 h treatment): > 100 µM | IC50 ([3]; read-out: IC50 ±SEM (50% cytocidal effect, cytotoxic), UWB1.289 + BRCA1, 48 h treatment): > 100 µM | TGI ±SEM (100% cell growth inhibition, cytostatic) ([4]; UWB1.289, 48 h treatment): >100 µM | GI50 ([4]; read-out: GI50 ±SEM (50% inhibition of cell growth, cytostatic), UWB1.289, 48 h treatment): 64 µM | IC50 ([4]; read-out: IC50 ±SEM (50% cytocidal effect, cytotoxic), UWB1.289, 48 h treatment): > 100 µM | TGI ±SEM (100% cell growth inhibition, cytostatic) ([5]; MRC-5 normal human lung fibroblasts, 48 h treatment): >100 µM | GI50 ([5]; read-out: GI50 ±SEM (50% inhibition of cell growth, cytostatic), MRC-5 normal human lung fibroblasts, 48 h treatment): > 100 µM | IC50 ([5]; read-out: IC50 ±SEM (50% cytocidal effect, cytotoxic), MRC-5 normal human lung fibroblasts, 48 h treatment): > 100 µM | PRI (Proliferation Rate Index) ([6]; Donor 1 PBMCs): 2.74 | SCE/Chromosome ± SEM ([6]; Donor 1 PBMCs): 0.18 ± 0.01 | SCEs/Metaphase ± SEM ([6]; Donor 1 PBMCs): 8.4 ± 0.56 | PRI (Proliferation Rate Index) ([6]; Donor 2 PBMCs): 2.78 | SCE/Chromosome ± SEM ([6]; Donor 2 PBMCs): 0.18 ± 0.009 | SCEs/Metaphase ± SEM ([6]; Donor 2 PBMCs): 8.06 ± 0.43 | PRI (Proliferation Rate Index) ([6]; Donor 3 PBMCs): 2.51 | SCE/Chromosome ± SEM ([6]; Donor 3 PBMCs): 0.19 ± 0.011 | SCEs/Metaphase ± SEM ([6]; Donor 3 PBMCs): 8.54 ± 0.51 | PRI (Proliferation Rate Index) ([6]; Donor 4 PBMCs): 2.73 | SCE/Chromosome ± SEM ([6]; Donor 4 PBMCs): 0.16 ± 0.006 | SCEs/Metaphase ± SEM ([6]; Donor 4 PBMCs): 7.56 ± 0.31 | PRI (Proliferation Rate Index) ([6]; Donor 5 PBMCs): 2.60 | SCE/Chromosome ± SEM ([6]; Donor 5 PBMCs): 0.2 ± 0.013 | SCEs/Metaphase ± SEM ([6]; Donor 5 PBMCs): 9.02 ± 0.6 | Mean PRI ± SD ([6]; mean of 5 donors' PBMCs): 2.672 ± 0.11 | Mean SCE/Chromosome ± SD ([6]; mean of 5 donors' PBMCs): 0.18 ± 0.011 | Mean SCEs/metaphase Mean ± SD ([6]; mean of 5 donors' PBMCs): 8.32 ± 0.55 | PRI (Proliferation Rate Index) [7]: 2.11 | SCE/Chromosome ± SEM [7]: 0.22 ± 0.02 | SCEs/Metaphase ± SEM [7]: 16.08 ± 1.26 | PRI (Proliferation Rate Index) [8]: 2.22 | SCE/Chromosome ± SEM [8]: 0.32 ± 0.02 | SCEs/Metaphase ± SEM [8]: 23.48 ± 1.58 | IC50 (50% inhibition of the PARP enzymatic activity) [9]: 132.68 ± 22.15 µM | IC100 (PARP inhibition) [9]: >300 µM
